{
  "source": "ChEMBL document CHEMBL1137295",
  "about": "“Discovery of HIV-1 protease inhibitors with picomolar affinities incorporating N-aryl-oxazolidinone-5-carboxamides as novel P2 ligands” (J Med Chem, 2006)",
  "key": {"[1]": {"biological_target": "Human immunodeficiency virus type 1 protease (Human immunodeficiency virus 1, UniProt Q72874, A71V/G73S/I84V/L10I/L63P/L90M)", "experiment": "Inhibition of HIV1 protease L10I/L63P/A71V/G73S/I84V/L90M mutant", "how_it_was_run": "(§1)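 FRET cleavage of Arg-Glu(EDANS)-[…]DABCYL)-Arg, 1 µM. Protease desalted into 20 mM sodium acetate pH 5, about 50 nM apparent by A280. Preincubated with inhibitor in DMSO 20-30 min at room temperature. Buffer 0.1 M NaOAc, 1 M NaCl, 1 mM EDTA, 1 mM DTT, 2% DMSO, 1 mg/mL BSA, pH 4.7. Read 340/490 nm, 30 °C, ~10 min. Ki by nonlinear fit of initial velocity versus inhibitor concentration.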"}, "[2]": {"biological_target": "Human immunodeficiency virus type 1 protease (Human immunodeficiency virus 1, UniProt Q72874, G48V/I54V/L10I/L63P/V82A)", "experiment": "Inhibition of HIV1 protease L10I/G48V/I54V/L63P/V82A mutant", "how_it_was_run": "as §1"}, "[3]": {"biological_target": "Human immunodeficiency virus type 1 protease (Human immunodeficiency virus 1, UniProt Q72874, Q7K)", "experiment": "Inhibition of wild type HIV1 protease Q7K mutant", "how_it_was_run": "as §1"}, "[4]": {"biological_target": "Human immunodeficiency virus type 1 protease (Human immunodeficiency virus 1, UniProt Q72874, D30N/L63P/N88D)", "experiment": "Inhibition of HIV1 protease D30N/L63P/N88D mutant", "how_it_was_run": "as §1"}},
  "note": "pKi: −log10 of the molar value.",
  "data": [
    {"smiles": "CC(C)CN(C[C@@H](O)[C@H](Cc1ccccc1)NC(=O)O[C@H]1CCOC1)S(=O)(=O)c1ccc(N)cc1", "values": [
      {"measurement": "pKi", "setting": "[1]", "value": 8.85},
      {"measurement": "pKi", "setting": "[2]", "value": 9.82},
      {"measurement": "pKi", "setting": "[3]", "value": 10.00},
      {"measurement": "pKi", "setting": "[4]", "value": 9.68}
    ]}
  ]
}
